Pooled drug test results. Numbers come from NIAID ChemDB, via PubChem.

Shared fields: whole-cell or culture tests; organism: Candida glabrata

MIC50, MIC90 and the like: level of inhibition, or share of isolates inhibited. Blank or dashed fields: not listed here. a–b is a range or a potency band. ECn is the concentration giving n% inhibition of infection, replication or growth. Percent inhibition refers to the dose given; in toxicity tests it is the harm to the cells. Conditions beyond the fields shown may differ between rows.

compound | strain or isolate | read by | conditions | measure | tested at | value
O=C(O)/C=C/c1ccccc1 | PYCC 2418 | broth dilution / turbidity |  | EC50 |  | 0.09 µM
CNC(=S)N/N=C/c1ccc(-n2ccnc2)cc1 | ATCC 2001 | broth dilution |  | MIC50 |  | >964 µM
COc1cc(C[C@H](C)[C@H](C)Cc2ccc(O)c(O)c2)ccc1O | CCC 115-2000 | broth dilution |  | MIC50 |  | 62.5 µg/mL
C=CC(C)(O)CCCC=C(C)C |  |  |  | MIC90 |  | 0.025–0.031 µg/mL
O=C(N/N=C\n1ccnc1)c1ccc([N+](=O)[O-])cc1 | ATCC 2001 | broth dilution |  | MIC50 |  | <0.9 µM
O=C(O)c1ccccc1O | PYCC 2418 | broth dilution / turbidity |  | EC50 |  | 0.2 µM
O=[N+]([O-])c1cc(CSc2nnnn2-c2ccc(Cl)c(Cl)c2)cc([N+](=O)[O-])c1 | 20/I | broth dilution | 48 h | EC80 |  | >125 µM
O=Cc1cc(O)ccc1O | PYCC 2418 | broth dilution / turbidity |  | EC50 |  | 1.16 µM
C[C@@H]1[C@H](O)[C@@H](C)/C=C/C=C/C=C/C=C/C=C/C=C/C=C/[C@H](OC2O[C@@H](C)[C@H](O)[C@@H](N)[C@H]2O)C[C@@H]2OC(O)(C[C@@H](O)C[C@@H](O)[C@H](O)CC[C@@H](O)C[C@@H](O)CC(=O)C[C@H]1C)C[C@H](O)[C@H]2C(=O)O | MTCC 3019 |  |  | MIC |  | 300 µg/mL
CC1=CC2C(N)=NC(N)=NC2C=C1c1ccc(N(C)C)c(C#N)c1 | ATCC 2001 | broth dilution |  | MIC |  | 2 µg/mL
O=[N+]([O-])c1cc(CSc2nnnn2C2CCCCC2)cc([N+](=O)[O-])c1 | 20/I | broth dilution | 48 h | EC80 |  | >500 µM
Clc1ccc(COC(Cn2ccnc2)c2ccc(Cl)cc2Cl)c(Cl)c1 | Clinical isolates | broth dilution |  | MIC |  | 0.03 µg/mL
O=[N+]([O-])c1cc(CSc2cccc[n+]2[O-])cc([N+](=O)[O-])c1 | 20/I | broth dilution | 24 h | EC80 |  | >500 µM
C[C@H]1[C@H](O)[C@@H](C)/C=C/C=C/C=C/C=C/C=C/C=C/C=C/[C@H](O[C@@H]2O[C@H](C)[C@@H](O)[C@H](N)[C@@H]2O)C[C@@H]2O[C@](O)(C[C@@H](O)C[C@@H](O)CC[C@H](O)[C@@H](O)C[C@@H](O)CC(=O)O[C@H]1C)C[C@H](O)[C@H]2C(=O)O | 77 isolates |  |  | MIC90 |  | 2 µg/mL
C[C@H]1[C@H](O)[C@@H](C)/C=C/C=C/C=C/C=C/C=C/C=C/C=C/[C@H](O[C@@H]2O[C@H](C)[C@@H](O)[C@H](N)[C@@H]2O)C[C@@H]2O[C@](O)(C[C@@H](O)C[C@@H](O)CC[C@H](O)[C@@H](O)C[C@@H](O)CC(=O)O[C@H]1C)C[C@H](O)[C@H]2C(=O)O | Clinical isolates | broth dilution |  | MIC |  | 0.25 µg/mL
O=[N+]([O-])c1cc(C[Se]c2nnnn2Cc2ccccc2)cc([N+](=O)[O-])c1 | 20/I | broth dilution | 24 h | EC80 |  | >500 µM
C/C(=N\NC(=O)c1ccc([N+](=O)[O-])cc1)c1ccc(-n2ccnc2)cc1 | ATCC 2001 | broth dilution |  | MIC50 |  | <0.68 µM
O=[N+]([O-])c1cc(CSc2nnnn2Cc2ccccc2)cc([N+](=O)[O-])c1 | 20/I | broth dilution | 24 h | EC80 |  | >500 µM
C[C@@H]1[C@H](O)[C@@H](C)/C=C/C=C/CC/C=C/C=C/C=C/C=C/C(O[C@H]2O[C@H](C)[C@@H](O)[C@H](N)[C@@H]2O)CC2O[C@](O)(CC(O)C(O)CCC(O)CC(O)CC(O)CC(=O)O[C@H]1C)CC(O)C2C(=O)O | ATCC 2001 | broth dilution |  | MIC50 |  | 1.05 µM
COc1cnc2c3c(nccc13)C1SC=CC1C2=O |  |  |  | MIC80 |  | >64 µg/mL
S=C(N/N=C/c1ccc(-n2ccnc2)cc1)Nc1ccccc1 | ATCC 2001 | broth dilution |  | MIC50 |  | >778 µM
CC[C@@H]1C[C@@]2(CC)O/C(=C\C(=O)OC)[C@@]3(CC)[C@H](CC)[C@]1(C)[C@@]23C |  | broth dilution | clinical isolate | MIC80 |  | 1.63 µM
c1ccc([Se][Se]c2ccccc2)cc1 | ATCC 2001 | broth dilution |  | MIC |  | >64 µg/mL
O=C(O)c1cccc(-n2nnnc2SCc2cc([N+](=O)[O-])cc([N+](=O)[O-])c2)c1 | 20/I | broth dilution | 48 h | EC80 |  | >500 µM
C[C@@H]1[C@H](O)[C@@H](C)/C=C/C=C/CC/C=C/C=C/C=C/C=C/C(O[C@H]2O[C@H](C)[C@@H](O)[C@H](N)[C@@H]2O)CC2O[C@](O)(CC(O)C(O)CCC(O)CC(O)CC(O)CC(=O)O[C@H]1C)CC(O)C2C(=O)O | Clinical isolates | broth dilution |  | MIC |  | 1 µg/mL
Nc1nc(=O)n([C@H]2CS[C@@H](CO)O2)cc1F | 77 isolates |  |  | MIC50 |  | 0.125 µg/mL
O=C(N/N=C/c1ccc(-n2ccnc2)cc1)c1ccccc1 | ATCC 2001 | broth dilution |  | MIC50 |  | >861.1 µM
C[C@H]1[C@H](O)[C@@H](C)/C=C/C=C/C=C/C=C/C=C/C=C/C=C/[C@H](O[C@@H]2O[C@H](C)[C@@H](O)[C@H](N)[C@@H]2O)C[C@@H]2O[C@](O)(C[C@@H](O)C[C@@H](O)CC[C@H](O)[C@@H](O)C[C@@H](O)CC(=O)O[C@H]1C)C[C@H](O)[C@H]2C(=O)O | 20/I | broth dilution |  | inhibition | 0.54 µM | 80%
NC(=S)N/N=C/c1ccc(-n2ccnc2)cc1 | 2001 | broth dilution |  | MIC50 |  | 510 µM
O=[N+]([O-])c1cc(C[Se]c2nnnn2C2CCCCC2)cc([N+](=O)[O-])c1 | 20/I | broth dilution | 48 h | EC80 |  | >500 µM

Repeating the final 2 entries:

| compound | strain or isolate | read by | conditions | measure | tested at | value |
|---|---|---|---|---|---|---|
| NC(=S)N/N=C/c1ccc(-n2ccnc2)cc1 | 2001 | broth dilution |  | MIC50 |  | 510 µM |
| O=[N+]([O-])c1cc(C[Se]c2nnnn2C2CCCCC2)cc([N+](=O)[O-])c1 | 20/I | broth dilution | 48 h | EC80 |  | >500 µM |